{"source": "PubChem BioAssay AID624099 (ICCB-Longwood, 2012)", "screen": "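Host factors E2 relies on to silence an HPV18 LCR reporter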 (primary screen)", "cells": "human C33A cervical carcinoma cells (HPV-negative) stably expressing BPV1 E2 and an HPV18 LCR luciferase reporter", "reagents": "siRNA pool against human genes, 40 nM", "time to read-out": "72 h", "read-out": "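HPV18 LCR reporter light per well, converted to plate-wise z-scores that exclude control wells, and averaged over triplicate plates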", "reading the numbers": "mean z-score and z-score: higher = stronger reporter signal, weaker E2 silencing", "active means": "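Hit if mean z-score reaches 2 and two or more of three replicate z-scores also reach 2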", "note": "Here is a random part of about 21,000 reagents tested. In the full data, 497 (2.4%) are marked active. 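Higher z means weaker E2 silencing; only reporter increases were scored, and knock-downs that hurt cell survival may mask genuine repressor factors.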 Unmarked entries are inactive. Reagent sequences are not shown."}
{"gene knocked down":"RXFP2","mean z-score":-0.92,"z-score, replicate A":-1.05,"z-score, replicate B":-0.9,"z-score, replicate C":-0.83}
{"gene knocked down":"PEX7","mean z-score":0.16,"z-score, replicate A":0.28,"z-score, replicate B":-0.08,"z-score, replicate C":0.29}
{"gene knocked down":"FOXL2","mean z-score":-0.73,"z-score, replicate A":-0.45,"z-score, replicate B":-1.07,"z-score, replicate C":-0.67}
{"gene knocked down":"LILRB2","mean z-score":0.22,"z-score, replicate A":0.33,"z-score, replicate B":0.17,"z-score, replicate C":0.16}
{"gene knocked down":"PCGF3","mean z-score":-1.33,"z-score, replicate A":-1.39,"z-score, replicate B":-1.18,"z-score, replicate C":-1.4}
{"gene knocked down":"HLA-DQB1","mean z-score":-0.63,"z-score, replicate A":-0.59,"z-score, replicate B":-0.7,"z-score, replicate C":-0.59}
{"gene knocked down":"PNCK","mean z-score":0.5,"z-score, replicate A":0.57,"z-score, replicate B":0.58,"z-score, replicate C":0.35}

Part of the list above, set out differently:
gene knocked down	mean z-score	z-score, replicate A	z-score, replicate B	z-score, replicate C
PCGF3	-1.33	-1.39	-1.18	-1.4
HLA-DQB1	-0.63	-0.59	-0.7	-0.59

Additional records follow.
{"gene knocked down":"DAAM2","mean z-score":1.4,"z-score, replicate A":0.46,"z-score, replicate B":1.86,"z-score, replicate C":1.89}
{"gene knocked down":"MROH7","mean z-score":-0.64,"z-score, replicate A":-0.73,"z-score, replicate B":-0.54,"z-score, replicate C":-0.64}
{"gene knocked down":"PPCDC","mean z-score":-0.49,"z-score, replicate A":-1,"z-score, replicate B":-0.5,"z-score, replicate C":0.04}
{"gene knocked down":"FRG2DP","mean z-score":-0.2,"z-score, replicate A":0.36,"z-score, replicate B":-0.83,"z-score, replicate C":-0.14}
{"gene knocked down":"SURF1","mean z-score":1.69,"z-score, replicate A":1.15,"z-score, replicate B":1.97,"z-score, replicate C":1.95}
{"gene knocked down":"SETDB1","mean z-score":-0.15,"z-score, replicate A":0.12,"z-score, replicate B":-0.18,"z-score, replicate C":-0.39}
{"gene knocked down":"SERPINB5","mean z-score":-0.18,"z-score, replicate A":-0.29,"z-score, replicate B":-0.06,"z-score, replicate C":-0.2}
